{"source": "paper PMC2625307", "about": "(Journal of molecular biology, 2008)", "key": {"[1]": {"target": "HXBc2 gp120 (Human immunodeficiency virus type 1 group M subtype B, UniProt P04578)", "assay": "Surface-plasmon resonance binding, HXBc2 gp120", "parameters": "species or system HIV-1", "settings": "HXBc2; vs biphenyl counterpart"}, "[2]": {"tested_on": "HIV-1 gp120", "settings": "vs biphenyl counterpart (CD4M33, CD4M47)"}}}
{"smiles": "CC(C)C[C@@H]1NC(=O)CNC(=O)[C@H](CC(C)C)NC(=O)[C@H](CO)NC(=O)[C@H](CCCCN)NC(=O)[C@@H]2CSSC[C@@H](C(=O)N[C@H](C(N)=O)C(C)C)NC(=O)[C@H](C)NC(=O)[C@@H]3CSSC[C@H](NC(=O)[C@H](Cc4ccccc4)NC(=O)[C@H](Cc4c[nH]cn4)NC(=O)[C@H](CC(C)C)NC(=O)[C@H](CC(N)=O)NC(=O)CCSSC[C@H](NC(=O)[C@H](CCCNC(=N)N)NC(=O)CNC(=O)[C@H](CC(C)C)NC1=O)C(=O)N[C@@H](C)C(=O)N1CCC[C@@H]1C(=O)N[C@@H]([C@@H](C)O)C(=O)N[C@@H](Cc1ccccc1)C(=O)N3)C(=O)N[C@@H](CCC(N)=O)C(=O)N[C@@H](CC(C)C)C(=O)N[C@@H](CCCNC(=N)N)C(=O)N2", "note": "[[Phe^23]M47]", "values": [{"measurement": "off-rate, fold difference between phenyl- and biphenyl-containing ligands", "setting": "[1]", "result": "≤ 1.1", "unit": "fold"}, {"measurement": "on-rate compared with biphenyl counterpart", "setting": "[2]", "result": "about half as fast"}]}
